Compound potency records, mixed from different reports. Data source: NIAID ChemDB in PubChem.

All rows: host cell toxicity; read-out: CC50

Lines come from different laboratories, so protocols vary.

SMILES | cell line | read by | result
c1ccc(CCCn2ccc3nc(-c4ccccc4)nc-3c2)cc1 | MDBK | - | 56 µg/mL
CCCCc1ccc(Nc2ncnc3c2cnn3-c2ccccc2Br)cc1 | HUH 9B | - | >50 µM
Cn1cc(C(=O)O)c(=O)c2cc(N)c(N3CCN(c4cnccn4)CC3)cc21 | C3H/3T3 | - | 17 µg/mL
CCOC(=O)CCCCCOc1cccc(CN(C(=O)c2ccc(-c3ccc(Cl)c(Cl)c3)cc2)C(C)C)c1 | HEK 293 | - | >20 µM
Oc1c(Oc2ccc(Cl)cc2Cl)ccc(Cl)c1C(F)F | Human foreskin fibroblasts | fluorescence | >10 µM
Cc1cccc(Cl)c1NC(=O)NCCc1ccc2c(n1)NCCC2 | PBMC | - | 50 µM
CC(=O)Nc1cc(O)c(C(=O)O)cc1F | L6 rat myoblasts | resazurin | 173 µM
OC[C@H]1O[C@@H](n2ccc3c(-c4ccco4)nc(F)nc32)C(O)C1O | MRC-5 fibroblast | MTT | 135.8 µM
CC(C)N(Cc1cccc(OCCCCCC(=O)OC(=O)O)c1)C(=O)c1ccc(-c2cccc(C(F)(F)F)c2)cc1 | BJ | - | >20 µM
COC(=O)c1ccc(OCCCOc2cnc(CS(=O)c3nc4ccccc4[nH]3)c(C)c2)cc1OC | HEK293T | MTT | 10 µM
CC(C)/C=C/C1=C(O)c2ccccc2C(=O)C1=O | 2C4 fibroblasts | - | >50 µg/mL
Fc1ccc(-n2ncc3c(NCCc4c[nH]c5ccccc45)ncnc32)c(F)c1 | HUH 9B | - | 19 µM
Fc1ccccc1Cn1ccc2nc(-c3ccccc3)nc-2c1 | MDBK | - | 29 µg/mL
O=C(NCc1ccc(Cl)cc1)c1c[nH]c2c(F)cc(CCCO)cc2c1=O | REF | - | >50 µM
O=C(NCCc1cccc(-n2cnc3ccccc32)n1)NCc1ccc(Cl)c(Cl)c1 | PBMC | - | 50 µM
CC1(C)CCC2C(=O)C(=O)c3ccccc3C2O1 | 2C4 fibroblasts | - | 20 µg/mL
Cc1ccc(C)n1-c1ccc(C(=O)NN2C(=O)c3c(Cl)c(Cl)c(Cl)c(Cl)c3C2=O)cc1 | Lung adenocarcinoma cells | MTT | 250 µM
CCN(CC)CCCC(C)n1c(N)c(-c2nc3ccccc3s2)c2nc(C#N)c(C#N)nc21 | L6 rat skeletal myoblasts | resazurin / fluorescence | 9 µM
C[C@@H]1CC[C@]2(C(=O)O)CC[C@]3(C)C(CCC4[C@@]5(C)CC[C@H](O)C(C)(C)C5CC[C@]43C)C2[C@H]1C | LLCMK2 cells | MTT | 9.9 µg/mL
O=C1NC(=O)/C(=C/c2ccc(-c3ccc(C#Cc4ccccc4)cc3)cc2)S1 | HepG2-NTCP | MTS | >10 µM
COc1cc(C)c2c(-c3ccccc3)c(OC)cc(NC(C)CCCN)c2n1 | RAW 264.7 | - | 1.9 µg/mL
Cc1c(OCCOCCOCCOc2ccnc(CS(=O)c3nc4ccccc4[nH]3)c2C)ccnc1CSc1nc2ccccc2[nH]1 | HEK293T | MTT | 1 µM
N#Cc1nc2c(-c3nc4ccccc4[nH]3)c(N)n(CCc3ccccc3)c2nc1C#N | L6 rat skeletal myoblasts | resazurin / fluorescence | 55 µM
C=CCCCC(=O)NCC(c1ccc2c(c1)OCO2)C1OCCO1 | BJ | - | <7.5 µM
Cc1cc(OCC(F)(F)F)cnc1CS(=O)c1nc2ccccc2[nH]1 | HEK293T | MTT | 50 µM
Clc1ccc(-c2nc3ccn(Cc4ccc(Br)cc4)cc-3n2)cc1 | MDBK | - | >100 µg/mL
Cc1ccc(C)n1-c1ccc(C(=O)NN2C(=O)c3ccccc3C2=O)cc1 | Lung adenocarcinoma cells | MTT | 235 µM
COc1ccc(Nc2ccn([C@@H]3O[C@@](CO)(N=[N+]=[N-])[C@@H](O)[C@@H]3F)c(=O)n2)c(OC)c1 | Hep2.2.15 | MTT | 722 µM
COc1ccccc1N1CCN(c2c(F)cc3c(=O)c(C(=O)O)cn(C)c3c2CN(C)C)CC1 | OM-10.1 | - | 18.3 µM
Nc1cc2c(=O)c(C(=O)O)cn(C3CC3)c2cc1N1CCN(c2cccc(C(F)(F)F)c2)CC1 | C3H/3T3 | - | 2.9 µg/mL
COc1cc(NC(C)CCCN)c2nc(C(F)(F)F)cc(C)c2c1-c1ccccc1 | RAW 264.7 | - | 3.1 µg/mL
OC[C@H]1O[C@@H](n2ccc3c(-c4cc5ccccc5o4)nc(Cl)nc32)C(O)C1O | BJ fibroblasts | MTT | 101.2 µM
Cc1cccc(C)c1N(CC(=O)Nc1ccc(-c2ncon2)cc1)C(=O)C1CCS(=O)(=O)CC1 | HEF | MTT | >30 µM
Cc1noc(-c2ccccc2)c1NC(=O)NCCc1ccc2c(n1)NCCC2 | PBMC | - | 50 µM
C[C@@]1(O)[C@H](O)[C@@H](CO)O[C@H]1n1cnc2c(N)ncnc21 | HBI10A | - | 100 µM
NNC(=O)c1ccncc1 | Lung adenocarcinoma cells | MTT | >450 µM
Cc1cc(OCCCOc2ccc(-c3cccc(C#N)c3)cc2)cnc1CS(=O)c1nc2ccccc2[nH]1 | HEK293T | MTT | >100 µM
CCOC(=O)c1cnc(Cc2ccccc2)c2cc(OC)ccc12 | HEK293T | trypan blue | 140 µM
CCOc1ccc(Nc2ncnc3c2cnn3-c2ccc(Cl)cc2Cl)cc1 | HUH 9B | - | 23 µM
Brc1ccc(Cn2ccc3nc(/C=C/c4ccccc4)nc-3c2)cc1 | MDBK | - | >100 µg/mL
N#Cc1nc2c(-c3nc4ccccc4[nH]3)c(N)n(Cc3cccc(C(F)(F)F)c3)c2nc1C#N | L6 rat skeletal myoblasts | resazurin / fluorescence | 13 µM
O=C1NC(=O)C(Cc2ccc(OCc3ccc(-c4ccccc4)cc3)cc2)S1 | HepG2-NTCP | MTS | >10 µM
CCc1cc2c(o1)-c1ccccc1C(=O)C2=O | 2C4 fibroblasts | - | 0.01 µg/mL
N#Cc1nc2c(-c3nc4ccccc4[nH]3)c(N)n(CCc3ccc(Cl)cc3)c2nc1C#N | L6 rat skeletal myoblasts | resazurin / fluorescence | 40 µM
Cc1nc(N)nc2c1ccn2[C@@H]1O[C@H](CO)C(O)C1O | MRC-5 fibroblast | MTT | 130.2 µM
CS(=O)(=O)CCNc1nc(N)nc2ccc(-c3cccc(NS(C)(=O)=O)c3)nc12 | Huh7 | - | >20 µM
Cc1cc(COc2ccc(-c3cccc(-c4nn[nH]n4)c3)cc2)cnc1CS(=O)c1nc2ccccc2[nH]1 | HEK293T | MTT | 125 µM
Nc1ncnc2c1ncn2[C@@H]1O[C@H](CO)[C@@H](O)[C@@H]1O | RK II | - | 320 µg/mL
O=C(NCc1ccc(Cl)cc1)c1c[nH]c2c(F)cccc2c1=O | REF | - | >50 µM
[N-]=[N+]=N[C@]1(CO)O[C@@H](n2ccc(NCCO)nc2=O)[C@@H](F)[C@@H]1O | Hep2.2.15 | MTT | <2 µM
CCOC(=O)CCCCCOc1cccc(CN(C(=O)c2ccc(-c3cn(S(=O)(=O)c4ccccc4)c4ccccc34)cc2)C(C)C)c1 | RAJI | - | >20 µM
O=C(O)c1cn(-c2ccc(Cn3cncn3)cc2)c2c(OC(F)F)c(N3CC=C(c4ccccc4)CC3)c(F)cc2c1=O | OM-10.1 | - | 0.3 µM
Cc1noc(C)c1NC(=O)NCCc1ccc2c(n1)NCCC2 | PBMC | - | 50 µM
OC[C@H]1O[C@@H](n2ccc3c(-c4cccs4)nc(F)nc32)C(O)C1O | BJ fibroblasts | MTT | 136 µM
CC(=O)c1ccc(NC(=O)NCCc2ccc3c(n2)NCCC3)cc1 | PBMC | - | 18 µM
Cc1ccc(NC(=O)Nc2ncnc3c2cnn3-c2ccc(C)cc2C)cc1 | HUH 9B | - | 38 µM
COc1cc2c(cc1OC)C(C)=NCC2 | RAJI | - | <7.5 µM
Nc1ncnc2ncn(/C=C3/C(F)C3(CO)CO)c12 | Akata | - | >100 µM
OC[C@H]1O[C@@H](n2ccc3c(-c4cc5ccccc5o4)nc(F)nc32)C(O)C1O | K562 leukemia cells | MTT | 47.6 µM
O=C1C(=O)c2ccccc2C(O)=C1/C=C/Cc1ccccc1 | 2C4 fibroblasts | - | >50 µg/mL
COc1cc(NC(C)CCCNC(=O)OC(C)(C)C)c2nc(C(F)(F)F)cc(C)c2c1-c1ccc(C(F)(F)F)cc1 | RAW 264.7 | - | >48 µg/mL
COC(=O)c1ccc(OCCCOc2ccnc(CSc3nc4ccccc4[nH]3)c2C)cc1OC | HEK293T | MTT | 80 µM
N#Cc1nc2c(-c3nc4ccccc4[nH]3)c(N)n(Cc3ccc(O)c(O)c3)c2nc1C#N | L6 rat skeletal myoblasts | resazurin / fluorescence | 22 µM
CCOc1nc(N)nc2ccc(-c3cccc(NS(=O)(=O)C(C)C)c3)nc12 | Huh7 | - | <10 µM
Brc1ccc(Cn2ccc3nc(-c4ccccc4Br)nc-3c2)cc1 | MDBK | - | >100 µg/mL
N#Cc1nc2c(-c3nc4ccccc4[nH]3)c(N)n(CC(O)c3ccccc3)c2nc1C#N | L6 rat skeletal myoblasts | resazurin / fluorescence | 16 µM
Cc1ccc(C)n1-c1ccc(C(=O)NN2C(=O)c3c(F)c(F)c(F)c(F)c3C2=O)cc1 | Lung adenocarcinoma cells | MTT | 260 µM
Oc1c(Oc2ccc(Cl)cc2Cl)ccc(Cl)c1Cc1ccccc1Cl | Human foreskin fibroblasts | fluorescence | >10 µM
O=C(NCCc1ccc2c(n1)NCCC2)NCCc1ccc2c(n1)NCCC2 | PBMC | - | 8.8 µM
COc1ccc2[nH]c(=O)c(CN(Cc3cccnc3)S(=O)(=O)c3cccc4nsnc34)cc2c1 | U1 | MTT | >10 µM
Cc1ccc(-n2ncc3c(Nc4cccc(Cl)c4)ncnc32)c(C)c1 | HUH 9B | - | 30 µM
O=S(=O)(NCCc1ccc2c(n1)NCCC2)c1cccc2cccnc12 | PBMC | - | 50 µM
Cc1ccc(-n2ncc3c(Nc4ccc(S(=O)(=O)Nc5nccs5)cc4)ncnc32)c(C)c1 | HUH 9B | - | >50 µM
[N-]=[N+]=N[C@]1(CO)O[C@@H](n2ccc(NCc3cccnc3)nc2=O)[C@@H](F)[C@@H]1O | Hep2.2.15 | MTT | >10 µM
COC(=O)c1cccc(-c2ccc(OCc3cnc(CS(=O)c4nc5ccccc5[nH]4)c(C)c3)cc2)c1 | HEK293T | MTT | 30 µM
CN1CCC(NC(=O)NCCc2ccc3c(n2)NCCC3)CC1 | PBMC | - | 50 µM
O=c1[nH]c(=O)n([C@H]2C[C@H](O)[C@@H](CO)O2)cc1/C=C/Br | P3HR-1 | - | 360 µM
CC(=O)Nc1ccc(Oc2ccc(Cl)cc2O)c(Cl)c1 | Human foreskin fibroblasts | fluorescence | >10 µM
Fc1ccc(-c2csc(-n3cccc3)n2)cc1 | Lung adenocarcinoma cells | MTT | 263 µM
N#Cc1nc2c(-c3nc4ccccc4[nH]3)c(N)n(CCc3ccccc3F)c2nc1C#N | L6 rat skeletal myoblasts | resazurin / fluorescence | 80 µM
O=C1NC(=O)/C(=C/c2ccc(-c3ccc(-c4ccccc4)cc3)cc2)S1 | HepG2-NTCP | MTS | >10 µM
COC(=O)C1=CO[C@@H]2OC[C@]3(O)C=C[C@H]1[C@H]23 | L6 rat skeletal myoblasts | resazurin | 57.8 µg/mL
Cn1cc(C(=O)O)c(=O)c2cc(N)c(N3CCN(c4nc5ccccc5o4)CC3)cc21 | C3H/3T3 | - | 0.6 µg/mL
CCC(=O)Nc1ccc(-c2ccc3nc(N)nc(N4CCS(=O)(=O)CC4)c3n2)cc1 | Huh7 | - | <10 µM
COc1cc(OC)cc(-c2ccc(C(=O)N(Cc3cccc(OCCCCCC(=O)OC(=O)O)c3)C(C)C)cc2)c1 | HepG2 | - | >20 µM
CC(C)C(=O)Nc1ccc(-c2ccc3nc(N)nc(NCCS(C)(=O)=O)c3n2)cc1 | Huh7 | - | >20 µM
CCN(CC)CCCC(C)n1c(N)c(-c2nc3ccccc3n2C)c2nc(C#N)c(C#N)nc21 | L6 rat skeletal myoblasts | resazurin / fluorescence | 12 µM

The last 5 rows once more:

SMILES	cell line	read by	result
Cn1cc(C(=O)O)c(=O)c2cc(N)c(N3CCN(c4nc5ccccc5o4)CC3)cc21	C3H/3T3	-	0.6 µg/mL
CCC(=O)Nc1ccc(-c2ccc3nc(N)nc(N4CCS(=O)(=O)CC4)c3n2)cc1	Huh7	-	<10 µM
COc1cc(OC)cc(-c2ccc(C(=O)N(Cc3cccc(OCCCCCC(=O)OC(=O)O)c3)C(C)C)cc2)c1	HepG2	-	>20 µM
CC(C)C(=O)Nc1ccc(-c2ccc3nc(N)nc(NCCS(C)(=O)=O)c3n2)cc1	Huh7	-	>20 µM
CCN(CC)CCCC(C)n1c(N)c(-c2nc3ccccc3n2C)c2nc(C#N)c(C#N)nc21	L6 rat skeletal myoblasts	resazurin / fluorescence	12 µM

CCn is the concentration with n% toxicity to the cells. An empty or dashed field is not shown.